Compound potency records, mixed from different reports. Data source: NIAID ChemDB in PubChem.

Shared fields: tests in culture

ECn is the concentration giving n% inhibition of infection, replication or growth. Zones are inhibition diameters on agar. A number after MIC or MFC names an inhibition level or a share of isolates. Conditions beyond the fields shown may differ between rows. Inhibition is in % at the dose shown (toxicity tests: loss of growth or viability). An empty or dashed field is not shown. Fold resistance has wild type as its base.

smiles,read by,mutations,organism,read-out,strain,cells,tested at,value
N=C(N)c1cn([C@@H]2O[C@H](CO)[C@@H](O)[C@@H]2O)c2ncnc(N)c12,plaque count,-,Mouse cytomegalovirus,EC50,SMITH,MEF,-,120 µM
CC#Cc1ccc(-c2ccccc2)s1,plaque count,-,Mouse cytomegalovirus,EC50,-,3T3-L1,-,>1 µg/mL
CCOP(=O)(O)CC(OCn1cc(C)c(=O)[nH]c1=O)C(C)O,cytopathic effect,-,Sandfly fever virus,EC50,Sicilian strain Vero cells,-,-,>320 µg/mL
CCCCCCCCCCCCNc1nc(=O)c2[nH]cnc2c(=O)[nH]1,cytopathic effect,-,West Nile virus,EC50,-,HepG2.2.15,-,500 µM
Nc1cc2[nH]cnc2c(=O)[nH]1,cytopathic effect,-,Respiratory syncytial virus,EC50,58-13,HeLa,-,2 µg/mL
c1cc(CN2CCCNCCNCCCNCC2)ccc1CN1CCCNCCNCCCNCC1,p24,-,HIV-1,inhibition,92US077 CLADE B R5X4,PBMC,0.5 µM,99%
NC12CC3CC(CC(C3)C1)C2,-,-,Influenza A virus,MIC,A/Maryland/104/68,-,-,0.05 µg/mL
S=c1nc[nH]c2c1ncn2C1CCCO1,plaque count,-,Dengue virus,inhibition,TYPE 2,LLC-MK2,100 µM,0%
NC(=O)c1ncn([C@@H]2O[C@H](CO)[C@@H](O)[C@H]2O)n1,plaque count,-,Pichinde virus,EC50,-,VERO,-,24 µM
O=c1c(O)c(-c2ccc(O)c(O)c2)oc2cc(O)cc(O)c12,-,-,Rotavirus A,EC50,SA-11,VERO,-,<60 µg/mL
Nc1nc(=O)n2ccn([C@@H]3O[C@H](CO)[C@@H](O)[C@H]3O)c2n1,cytopathic effect,-,Dengue virus,EC50,TYPE 2,VERO,-,10 µg/mL
C=Cc1cc(C(=O)O)c(=O)n2cc(F)c(N3CC[C@H](N)C3)c(C)c12,-,-,Streptococcus pyogenes,MIC,EES61,-,-,3.1 µg/mL
CC(N)C12CC3CC(CC(C3)C1)C2,-,-,Influenza A virus,EC50,H1N1 A/FM/1/47,MDCK,-,0.62 µM
C(C#Cc1cccs1)#Cc1cccs1,plaque count,-,Mouse cytomegalovirus,EC50,-,3T3-L1,-,0.062 µg/mL
Cc1c(N2C[C@H]3OCC[C@@]3(CN)C2)c(F)cn2c(=O)c(C(=O)O)cc(C3CC3)c12,-,-,Streptococcus pyogenes,MIC,EES61,-,-,0.1 µg/mL
CCC(C)n1ncn(-c2ccc(N3CCN(c4ccc(OC[C@H]5CO[C@](Cn6cncn6)(c6ccc(Cl)cc6Cl)O5)cc4)CC3)cc2)c1=O,-,-,Aspergillus fumigatus,Geometric mean MIC,60 isolates,-,-,0.63 µg/mL
Cc1cn([C@H]2C[C@H](N=[N+]=[N-])[C@@H](CO)O2)c(=O)[nH]c1=O,XTT,RT-D67N K70R L100I T215Y K219Q,HIV-1,EC50,NL4-3(RT-4XAZT+L100I),CEM + CEM-SS,-,0.02 µM
Nc1ncnc2c1ncn2CCOCP(=O)(O)O,-,-,Epstein-Barr virus,inhibition,-,P3HR-1,10 µM,5%
Brc1cc(-c2cccs2)sc1-c1cccs1,plaque count,-,Mouse cytomegalovirus,EC50,-,3T3-L1,-,0.281 µg/mL
C[C@H]1C[C@H](N)CN1c1cc2c(cc1F)c(=O)c(C(=O)O)cn2-c1ccc(F)cc1F,-,-,Enterococcus faecium,MIC,ATCC 8043,-,-,0.12 µg/mL
Nc1ncnc2c1ncn2C[C@H](O)CO,-,-,Epstein-Barr virus,inhibition,-,P3HR-1,0.01 µM,4%
Nc1ncc2c(ncn2COC(CO)CO)n1,syncytia,-,Human herpesvirus 7,EC50,-,SupT1,-,0.0001 µg/mL
CC(C)(CO)C(=O)SCCOP(=O)(NCc1ccccc1)OC[C@H]1O[C@@H](n2cnc3c(=O)[nH]c(N)nc32)[C@](C)(O)[C@@H]1O,replicon,M28T,Hepatitis C virus,fold resistance,GT1a,Replicon cells,-,1.06
Nc1nc(N)c2ncn(CCOCP(=O)(O)O)c2n1,plaque count,-,Varicella zoster virus,EC50,OKA,HEL,-,0.7 µg/mL
NC1=NC2C(C=CN2CC(CO)CCO)C(=O)N1,syncytia,-,Human herpesvirus 7,EC50,-,SupT1,-,>107 µg/mL
CCOC(=O)P(=O)(OCCOCn1cnc2c(=O)[nH]c(N)nc21)OC(C)C,cytopathic effect,-,Herpes simplex virus 1,EC95,L2,VERO,-,0.77 µM
N#Cc1c(C(N)=O)ncn1[C@@H]1O[C@H](CO)[C@@H](O)[C@H]1O,cytopathic effect,-,Respiratory syncytial virus,EC50,LONG,HeLa,-,>500 µg/mL
CC1COc2c(N3CCN(C)CC3)c(F)cc3c(=O)c(C(=O)O)cn1c23,-,-,Vittaforma corneae,MIC50,-,-,-,54 µM
C[C@@H]1CN(c2c(F)c(N)c3c(=O)c(C(=O)O)cn(C4CC4)c3c2F)C[C@H](C)N1,broth dilution,-,Mycobacterium avium complex,MIC,24,-,-,2 µg/mL
O=c1c(O)c(-c2ccccc2)oc2cc(O)cc(O)c12,-,-,Rotavirus A,EC50,SA-11,VERO,-,>15 µg/mL
NC(=O)c1cn([C@@H]2O[C@H](CO)[C@@H](O)[C@@H]2O)c2ncnc(N)c12,plaque count,-,Mouse cytomegalovirus,EC50,SMITH,MEF,-,8 µM
O=C(O)P(=O)(O)O,plaque count,-,Mouse cytomegalovirus,EC50,Ganciclovir-resistant,C1271,-,650 µM
Cc1cn(COC(CP(=O)(O)O)C(C)O)c(=O)[nH]c1=O,cytopathic effect,-,Sandfly fever virus,EC50,Sicilian strain Vero cells,-,-,>320 µg/mL
FC(F)(F)c1cccc([Se][Se]c2cccc(C(F)(F)F)c2)c1,broth dilution,-,Candida dubliniensis,MFC,-,-,-,>64 µg/mL
O=c1[nH]cnc2c1ncn2[C@H]1CC[C@@H](CO)O1,ELISA,-,HIV-2,EC50,2300,PBMC,-,3.35 µM
CCC[C@H](N)C1CCN(c2c(F)cn3c(=O)c(C(=O)O)cc(C4CC4)c3c2C)C1,-,-,Streptococcus pyogenes,MIC,EES61,-,-,0.002 µg/mL
Nc1ncnc2c1ncn2CCOCP(=O)(O)O,plaque count,-,Mouse cytomegalovirus,EC50,Ganciclovir-resistant,C1271,-,2.4 µM
Cc1c(N2CCC3(CCC[C@@H]3N)C2)c(F)cn2c(=O)c(C(=O)O)cc(C3CC3)c12,-,-,Enterococcus faecium,MIC,ATCC 8043,-,-,0.1 µg/mL
CCNc1nc(=O)c2ncn([C@@H]3O[C@H](CO)[C@@H](O)[C@H]3O)c2c(=O)[nH]1,neutral red,-,Measles virus,EC50,-,HepG2.2.15,-,1.2 µM
CCCc1cc(=O)oc2c3c(c4c(c12)OC(C)(C)C=C4)O[C@@H](C)[C@H](C)[C@@H]3O,XTT,RT-Y181C,HIV-1,EC50,Nevirapine-resistant (RT Y181C),CEM + CEM-SS,-,<0.01 µM
Nc1nc2c(ncn2CCC(CO)CO)c(=O)[nH]1,syncytia,-,Human herpesvirus 7,EC50,-,SupT1,-,>170 µg/mL
CCCc1cc(=O)oc2c3c(c4c(c12)OC(C)(C)C=C4)O[C@H](C)[C@@H](C)[C@@H]3O,XTT,RT-D67N K70R T215Y K219Q,HIV-1,EC50,NL4-3(RT-4XAZT),CEM + CEM-SS,-,0.2 µM
O=C(O)P(=O)(O)O,syncytia,-,Human herpesvirus 7,EC50,-,CD4+ T lymphocytes,-,7.6 µg/mL
Nc1ccn([C@@H]2C[C@H](CO)[C@@H](O)[C@H]2O)c(=O)n1,cytopathic effect,-,Respiratory syncytial virus,EC50,S-8,HeLa,-,>100 µg/mL
Nc1nc2c(ncn2COCCO)c(=O)[nH]1,plaque count,-,Mouse cytomegalovirus,EC50,HPMPC-resistant,C1271,-,2.7 µM
Nc1ncnc2c1ncn2[C@H]1[C@H](O)[C@H](O)[C@]2(CO)O[C@H]12,cytopathic effect,-,Respiratory syncytial virus,EC50,LONG,HeLa,-,>500 µg/mL
CCn1cc(C(=O)O)c(=O)c2cc(F)c(N3CCNC(C)C3)c(F)c21,-,-,Vittaforma corneae,MIC50,-,-,-,3 µM
Nc1ccn(C[C@@H](CO)OCP(=O)(O)O)c(=O)n1,plaque count,-,Varicella zoster virus,EC50,ACV-resistant,HEL,-,0.027 µg/mL
O=C1NNC(=O)c2[nH]cnc2N1,cytopathic effect,-,West Nile virus,EC50,-,HepG2.2.15,-,>500 µM
COC[C@H](N)C1CCN(c2c(F)cn3c(=O)c(C(=O)O)cc(C4CC4)c3c2C)C1,-,-,Enterococcus faecium,MIC,ATCC 8043,-,-,0.005 µg/mL
CCn1cc(C(=O)O)c(=O)c2cnc(N3CCNCC3)nc21,-,-,Vittaforma corneae,MIC50,-,-,-,>100 µM
C/C=C/CSc1cc(NC(=S)c2ccsc2C)ccc1Cl,XTT,RT-L100I T139I,HIV-1,fold resistance,Costatolide-resistant (RT L100I T139I),CEM + CEM-SS,-,>40
O=c1ccc2cccc(O)c2[nH]1,-,-,Vittaforma corneae,MIC50,-,-,-,52 µM
CN[C@@H]1[C@H](O[C@H]2[C@H](O[C@H]3[C@H](O)[C@@H](O)[C@H](N=C(N)N)[C@@H](O)[C@@H]3N=C(N)N)O[C@@H](C)[C@]2(O)C=O)O[C@@H](CO)[C@H](O)[C@H]1O,agar diffusion,-,Pseudomonas aeruginosa,zone,-,-,250 µg/disc,30 mm
CC(O)C(CP(=O)(O)O)OCn1ccc(=O)[nH]c1=O,cytopathic effect,-,Sandfly fever virus,EC50,Sicilian strain Vero cells,-,-,>320 µg/mL
C(#Cc1cccs1)c1ccccc1,plaque count,-,Mouse cytomegalovirus,EC50,-,3T3-L1,-,>1 µg/mL
C=CCc1cc(C(=O)O)c(=O)n2cc(F)c(N3CC[C@H](N)C3)c(C)c12,-,-,Streptococcus pyogenes,MIC,EES61,-,-,6.2 µg/mL
O=C(O)P(=O)(O)O,plaque count,-,Varicella zoster virus,EC50,ACV-resistant,HEL,-,10.8 µg/mL
c1cc(-c2ccsc2-c2ccsc2)cs1,plaque count,-,Mouse cytomegalovirus,EC50,-,3T3-L1,-,0.375 µg/mL
CC1(C)[C@@H](O[C@H]2O[C@H](C(=O)O)[C@@H](O)[C@H](O)[C@H]2O[C@@H]2O[C@H](C(=O)O)[C@@H](O)[C@H](O)[C@H]2O)CC[C@]2(C)[C@H]3C(=O)C=C4[C@@H]5C[C@@](C)(C(=O)O)CC[C@]5(C)CC[C@@]4(C)[C@]3(C)CC[C@@H]12,virus yield,-,Dengue virus,EC50,TYPE 4 (YUNH),VERO,-,<416 µg/mL
C#CC[C@@H](C(=O)N[C@H](/C=C/C(=O)OCC)C[C@@H]1CCNC1=O)n1cccc(NC(=O)c2cc(C)on2)c1=O,cytopathic effect / XTT,-,Rhinovirus,inhibition,Serotype 19,H1-HELA,0.187 µM,90%
NC(=O)c1nc(F)c[nH]c1=O,plaque count,-,Influenza C virus,EC50,Taylor/1233/47,MDCK,-,0.044 µg/mL
CC(C)CNC(=O)C=CC#Cc1cccs1,plaque count,-,Mouse cytomegalovirus,EC50,-,3T3-L1,-,>1 µg/mL
Nc1nc2c(ncn2CC(CO)OCP(=O)(O)O)c(=O)[nH]1,plaque count,-,Mouse cytomegalovirus,EC50,WILD TYPE,C1271,-,0.8 µM
CCCCCCCCCCCCCCCCCCNc1nc(=O)c2ncn([C@@H]3O[C@H](CO)[C@@H](O)[C@H]3O)c2c(=O)[nH]1,cytopathic effect,-,West Nile virus,EC50,-,HepG2.2.15,-,5 µM
Nc1ncnc2c1ncn2[C@H]1CC[C@@H](CO)O1,virus yield,-,HIV-2,inhibition,LAV-2,U-937,100 µM,95%
c1cc(-c2ccsc2)cs1,plaque count,-,Mouse cytomegalovirus,EC50,-,3T3-L1,-,>1 µg/mL
Nc1nc2c(ncn2COC(CO)CO)c(=O)[nH]1,plaque count,-,Varicella zoster virus,EC50,PMEA-resistant,HEL,-,0.36 µg/mL
NC1CCN(c2c(F)cc3c(=O)c(C(=O)O)cn(C4CC4)c3c2Cl)C1,-,-,Enterococcus faecium,MIC50,10 strains,-,-,0.25 µg/mL
c1csc(-c2ccc(-c3cccs3)s2)c1,plaque count,-,Mouse cytomegalovirus,EC50,-,3T3-L1,-,0.062 µg/mL
Cc1ccnc2c1NC(=O)c1cccnc1N2C1CC1,XTT,RT-Y181C L103N,HIV-1,fold resistance,Pyridinone-resistant (RT K103N Y181C),CEM + CEM-SS,-,>3800
c1ccc([Se][Se]c2ccccc2)cc1,broth dilution,-,Candida guilliermondii,MIC,-,-,-,>64 µg/mL

For reference, 6 entries again:

smiles,read by,mutations,organism,read-out,strain,cells,tested at,value
CCn1cc(C(=O)O)c(=O)c2cc(F)c(N3CCNC(C)C3)c(F)c21,-,-,Vittaforma corneae,MIC50,-,-,-,3 µM
Nc1nc(=O)n2ccn([C@@H]3O[C@H](CO)[C@@H](O)[C@H]3O)c2n1,cytopathic effect,-,Dengue virus,EC50,TYPE 2,VERO,-,10 µg/mL
Nc1nc(N)c2ncn(CCOCP(=O)(O)O)c2n1,plaque count,-,Varicella zoster virus,EC50,OKA,HEL,-,0.7 µg/mL
Nc1nc2c(ncn2CC(CO)OCP(=O)(O)O)c(=O)[nH]1,plaque count,-,Mouse cytomegalovirus,EC50,WILD TYPE,C1271,-,0.8 µM
Cc1c(N2CCC3(CCC[C@@H]3N)C2)c(F)cn2c(=O)c(C(=O)O)cc(C3CC3)c12,-,-,Enterococcus faecium,MIC,ATCC 8043,-,-,0.1 µg/mL
Cc1c(N2C[C@H]3OCC[C@@]3(CN)C2)c(F)cn2c(=O)c(C(=O)O)cc(C3CC3)c12,-,-,Streptococcus pyogenes,MIC,EES61,-,-,0.1 µg/mL